This note sets out measurements from PubChem BioAssay AID1159524 (National Center for Advancing Translational Sciences (NCATS), 2015).

Only a part is listed here, and it is no random draw. Records with an inconclusive call do not appear. Calls of active or inactive are those of the source. Calls follow the shape of the full dose curve; tested in HEK293T cells.
% is scaled to controls: 0 for no effect and ±100 for the full control effect; potency is read from the fitted curve at half-maximal effect.

This test in a line: High Throughput Screening for Foot and Mouth Disease Virus Antivirals. Also: read-out not given here; nearly all actives have a fitted effect of over 45% in size. The following applies: FMDV antiviral cell-based qHTS; series mostly up to 57.9 µM; activity change, negative = inhibition: at the top concentration. A general note: Quantitative high-throughput screening tests each substance at several concentrations.
Consider `O=P1(Nc2ncccn2)COc2ccccc2OC1`, for which the “activity change, negative = inhibition” value is inactive: -3.94%.
As for `CCCC1OP(=O)(Nc2ccccc2)OCC1CC` (stereo not given), the “activity change, negative = inhibition” value is inactive: 11.4%.
For `O=C(/C=C/c1ccccc1)OC1CN2CCC1CC2` (stereo not given), the “activity change, negative = inhibition” value was inactive: 5.87%.
`CC1=C2N=C(C=C3N=C(C(C)=C4[N-][C@@](C)([C@@H]5N=C1[C@](C)(CCC(=O)NC[C@@H](C)OP(=O)([O-])O[C@H]1[C@@H](O)[C@@H](n6cnc7cc(C)c(C)cc76)O[C@@H]1CO)[C@H]5CC(N)=O)[C@@](C)(CC(N)=O)[C@@H]4CCC(N)=O)[C@@](C)(CC(N)=O)[C@@H]3CCC(N)=O)C(C)(C)[C@@H]2CCC(N)=O.[C-]#N.[Co+3]`: the Potency is active: 35.5 µM.
In the case of `CN(C)C1(CNC(=O)c2ccc(S(C)(=O)=O)cc2)CCCCC1`, the “activity change, negative = inhibition” value is inactive: 1.08%.
As for `COc1cc(C2NCCC3(OCCO3)C2(C)C)cc(OC)c1OC.O=[N+]([O-])c1cc([N+](=O)[O-])c(O)c([N+](=O)[O-])c1` (stereo not given), the “activity change, negative = inhibition” value was inactive: -2.67%.
On the same count and under the same terms, then `Cc1ccc(C(=O)OC2CN3CCC2CC3)cc1` (stereo not given), with inactive: 12.4%; and `Cc1cc(SC(NC=O)C(Cl)(Cl)Cl)ncn1` (stereo not given), with inactive: -14.2%.
Regarding `O=P(Nc1ccccn1)(c1cccc2ccccc12)c1cccc2ccccc12`, the “activity change, negative = inhibition” value was inactive: -10.7%.
On the same count and under the same terms, in the case of `CCOC(=O)Nc1cccc([As](=O)(O)O)c1` it was inactive: 0.501%; in that of `Cc1cc(SC(NC(=O)c2ccccc2)C(Cl)(Cl)Cl)nc(C(C)C)n1` (stereo not given), inactive: -24.7%.
Regarding `CCCCOc1ccc(C(=O)NCC2(N3CCCCC3)CCCCC2)cc1OC`, the “activity change, negative = inhibition” value is inactive: -17%.
With `COP(=O)(OC)N1CC1c1ccccc1` (stereo not given), the “activity change, negative = inhibition” value was inactive: -18.5%.
For `CC1CCNP(=O)(N(CCCl)CCCl)O1` (stereo not given), the “activity change, negative = inhibition” value is inactive: -12.8%.
For `O=C(O)C(=O)c1ccc(N(CCCl)CCCl)cc1.c1ccc(Nc2ccccc2)cc1`, the “activity change, negative = inhibition” value is inactive: -4.18%.
The same measure, in the same setting: in the case of `CCOC(=O)Nc1ccc([As](=O)(O)O)c(O)c1` it was inactive: -14.8%; in that of `CCOC(=O)c1ccc(NC(=O)C(C)(CCl)SC)cc1` (stereo not given), inactive: 61.2%.
`O=C(OC1CN2CCC1CC2)c1cccc([N+](=O)[O-])c1` (stereo not given): the “activity change, negative = inhibition” value was inactive: -4.16%.
Take `O=C(COc1ccccc1)OC1CN2CCC1CC2` (stereo not given): the “activity change, negative = inhibition” value was inactive: -15.6%.
Regarding `COC(=O)C1(C)COP(=O)(N2CCCC2)OC1` (stereo not given), the “activity change, negative = inhibition” value is inactive: -10.6%.
Consider `COc1ccc(N/C(=N/P(=O)(N2CCOCC2)N2CCOCC2)N2CCOCC2)cc1`, for which the “activity change, negative = inhibition” value is inactive: 1.68%.
As to `O=[N+]([O-])c1cc(Oc2ccc([N+](=O)[O-])cc2C(F)(F)F)cc([N+](=O)[O-])c1`, the “activity change, negative = inhibition” value was inactive: -1.69%.
In the case of `COc1cc(I)ccc1[As](=O)(O)O`, the “activity change, negative = inhibition” value is inactive: -4.16%.
For the compound `COc1ccc2nc(NP(=O)(c3ccccc3)c3ccccc3)sc2c1`, the “activity change, negative = inhibition” value was inactive: 39.4%.
In the case of `O=P1(N(CCCl)CCCl)Nc2ccccc2N1`, the “activity change, negative = inhibition” value was inactive: 7.98%.
For the compound `O=P1(N(CCCl)CCCl)OCCCN1CCCl` (stereo not given), the “activity change, negative = inhibition” value is inactive: -10.8%.
`CCN(CC)CCCOC(=O)C(O)(c1ccccc1)c1ccccc1`: the “activity change, negative = inhibition” value is inactive: -7.07%.
Same read-out and setting: then `Cc1cc(=O)[nH]c(N[N+](=O)[O-])n1`, with inactive: -13.2%; and `O=C(OC1CN2CCC1CC2)C12CC3CC(CC(C3)C1)C2` (stereo not given), with inactive: -5.04%.
The same measure, in the same setting: then `Cc1c2c(nc3ccccc13)SC(C(Cl)Cl)C2` (stereo not given), with inactive: 18.9%; and `O=[N+]([O-])c1cc([N+](=O)[O-])c(-c2ccn[nH]2)s1`, with inactive: -29.4%.
Regarding `CC(C)NC(=O)NP(=O)(Oc1ccccc1)Oc1ccccc1`, the “activity change, negative = inhibition” value is inactive: 73.5%.
Take `O=C(OC1CN2CCC1CC2)c1cccc2[nH]cnc12` (stereo not given): the “activity change, negative = inhibition” value was inactive: -7.38%.
Take `CCN(CC)C(=S)SC(NC=O)C(Cl)(Cl)Cl` (stereo not given): the “activity change, negative = inhibition” value is inactive: -12.1%.
As for `COC(=O)C1(C)COP(=O)(N2CCCCCC2)OC1` (stereo not given), the “activity change, negative = inhibition” value is inactive: -13.3%.
For `CC(C)c1ccc(OP(=O)(Nc2ccccn2)Oc2ccccc2F)cc1` (stereo not given), the “activity change, negative = inhibition” value is inactive: 42.9%.
Regarding `ClCCSc1nnc(-c2cccnc2)o1`, the “activity change, negative = inhibition” value is inactive: 0%.
Take `Cc1ccc2nc3c(c(C)c2c1)CC(C(Cl)Cl)S3` (stereo not given): the “activity change, negative = inhibition” value was inactive: 57.4%.
With `Cc1ccc(OP(=O)(Nc2ccc([N+](=O)[O-])cn2)Oc2ccc(C)cc2)cc1`, the “activity change, negative = inhibition” value is inactive: 61.1%.
For `[N-]=[N+]=NC1CCCCC1NC(=O)c1cc([N+](=O)[O-])cc([N+](=O)[O-])c1` (stereo not given), the “activity change, negative = inhibition” value is inactive: -23.4%.
In the case of `O=[N+]([O-])c1ccc(-c2cc([N+](=O)[O-])c(O)c([N+](=O)[O-])c2)cc1`, the “activity change, negative = inhibition” value was inactive: -22%.
For `COc1cc(C(=O)NCC2(N3CCOCC3)CCCCC2)ccc1OCC(C)C`, the “activity change, negative = inhibition” value was inactive: -7.01%.
The same measure, in the same setting: in the case of `O=[As](O)(c1ccc(O)cc1)c1ccccc1O` it was inactive: -2.77%.
With `C[As](=O)(O)c1cccc(C(=O)O)c1`, the “activity change, negative = inhibition” value was inactive: -11.5%.
For the compound `O=[N+]([O-])c1cc([N+](=O)[O-])c(Nc2cccnc2)c([N+](=O)[O-])c1`, the Potency was active: 35.5 µM.
